Reference: ChEMBL document CHEMBL2029297, “Reexamining hydroxamate inhibitors of botulinum neurotoxin serotype A: extending towards the β-exosite” (2012)
pIC50: −log10 of the molar value.

Chains of the proteins cited; added tags and fusions are not shown. Residues count along the entry.
UniProt P0DPI0, 2-448 limits assumed: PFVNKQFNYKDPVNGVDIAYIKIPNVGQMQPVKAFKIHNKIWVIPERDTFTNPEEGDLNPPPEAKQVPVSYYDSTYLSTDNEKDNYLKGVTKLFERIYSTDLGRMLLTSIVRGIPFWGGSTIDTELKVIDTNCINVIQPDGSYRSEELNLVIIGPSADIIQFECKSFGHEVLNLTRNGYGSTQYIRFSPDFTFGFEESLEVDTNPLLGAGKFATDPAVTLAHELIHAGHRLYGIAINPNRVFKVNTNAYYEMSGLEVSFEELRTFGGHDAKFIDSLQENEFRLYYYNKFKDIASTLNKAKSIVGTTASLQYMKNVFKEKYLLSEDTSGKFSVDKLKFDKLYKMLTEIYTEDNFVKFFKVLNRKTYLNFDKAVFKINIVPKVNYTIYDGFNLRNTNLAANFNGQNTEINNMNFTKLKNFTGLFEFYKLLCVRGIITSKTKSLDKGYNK

molecular target: Botulinum neurotoxin type A (Clostridium botulinum, UniProt P0DPI0); experiment: Inhibition of clostridium botulinum Botulinum neurotoxin type A using SNAPide as substrate by FRET analysis

| Compound | pIC50 |
| --- | --- |
| COc1ccc(-c2ccc(/C=C/C(=O)NO)c(Cl)c2)c(OC)n1 | 5.10 |
| COc1cccc(-c2ccc(/C=C/C(=O)NO)c(Cl)c2)c1 | 4.60 |
| Cc1ccc(-c2ccc(/C=C/C(=O)NO)c(Cl)c2)cc1 | 4.22 |
| CN1CCN(c2ccc(-c3ccc(/C=C/C(=O)NO)c(Cl)c3)cn2)CC1 | 4.67 |
| O=C(/C=C/c1ccc(N2CCCCC2)cc1Cl)NO | 5.95 |
| O=C(/C=C/c1ccc(-c2cnc3ccccc3c2)cc1Cl)NO | 5.00 |
| COc1ccc(-c2ccc(/C=C/C(=O)NO)c(Cl)c2)cn1 | 6.25 |
| CN(C)c1ccc(-c2ccc(/C=C/C(=O)NO)c(Cl)c2)cn1 | 4.14 |
| COc1ncccc1-c1ccc(/C=C/C(=O)NO)c(Cl)c1 | 6.18 |
| O=C(/C=C/c1ccc(-c2cncc(Cl)c2)cc1Cl)NO | 4.56 |
| COc1ncc(-c2ccc(/C=C/C(=O)NO)c(Cl)c2)cc1Cl | < 4.00 |
| O=C(/C=C/c1ccc(/C=C/c2ccccc2)cc1Cl)NO | 4.16 |
| O=C(/C=C/c1ccc(-c2cc[nH]n2)cc1Cl)NO | 5.04 |
| COc1ccc(-c2ccc(/C=C/C(=O)NO)c(Cl)c2)cc1 | 4.49 |
| Cn1cc(-c2ccc(/C=C/C(=O)NO)c(Cl)c2)cn1 | 4.60 |
| O=C(/C=C/c1ccc(-c2ccccc2)cc1Cl)NO | 5.91 |
| O=C(/C=C/c1ccc(-c2cccc(F)c2)cc1Cl)NO | 4.50 |
| O=C(/C=C/c1ccccc1Cl)NO | 4.87 |
| Cc1noc(C)c1-c1ccc(/C=C/C(=O)NO)c(Cl)c1 | 5.94 |
| Cn1cncc1-c1ccc(/C=C/C(=O)NO)c(Cl)c1 | 4.65 |
| O=C(/C=C/c1ccc(-c2cccc(C(F)(F)F)c2)cc1Cl)NO | 4.42 |
| CNC(=O)c1ccc(-c2ccc(/C=C/C(=O)NO)c(Cl)c2)cn1 | 4.91 |

| Compound | pIC50 |
| --- | --- |
| Cc1cccc(-c2ccc(/C=C/C(=O)NO)c(Cl)c2)c1 | < 4.00 |
| Nc1ccccc1-c1ccc(/C=C/C(=O)NO)c(Cl)c1 | 6.26 |
| O=C(/C=C/c1ccc(-c2ccc(S(=O)(=O)N3CCOCC3)cc2)cc1Cl)NO | < 4.00 |
| O=C(/C=C/c1ccc(N2CCNCC2)cc1Cl)NO | < 4.00 |
| O=C(/C=C/c1ccc(-c2cn[nH]c2)cc1Cl)NO | 4.18 |
| O=C(/C=C/c1ccc(-c2ccc3c(c2)OCO3)cc1Cl)NO | 4.48 |
| CS(=O)(=O)c1ccc(-c2ccc(/C=C/C(=O)NO)c(Cl)c2)cc1 | 4.81 |
| O=C(/C=C/c1ccc(-c2ccncc2)cc1Cl)NO | 6.21 |
| O=C(/C=C/c1ccc(-c2cc(F)c(F)c(F)c2)cc1Cl)NO | 6.19 |
| Cn1nccc1-c1ccc(/C=C/C(=O)NO)c(Cl)c1 | 5.88 |
| CC(C)COc1ccc(/C=C/C(=O)NO)c(Cl)c1 | 4.37 |
| O=C(/C=C/c1ccc(-c2ccc(C(F)(F)F)cc2)cc1Cl)NO | 4.45 |
| O=C(/C=C/c1ccc(-c2cncnc2)cc1Cl)NO | 5.55 |
| COc1cncc(-c2ccc(/C=C/C(=O)NO)c(Cl)c2)c1 | 4.45 |
| COc1cc(C)c(-c2ccc(/C=C/C(=O)NO)c(Cl)c2)cn1 | 6.12 |
| COc1ncc(-c2ccc(/C=C/C(=O)NO)c(Cl)c2)cn1 | 5.92 |
| O=C(/C=C/c1ccc(-c2ccc(F)cc2)cc1Cl)NO | 5.02 |
| O=C(/C=C/c1ccc(-c2cccnc2)cc1Cl)NO | 6.64 |
| O=C(/C=C/c1ccc(-c2ccc(F)cc2F)cc1Cl)NO | 6.01 |
| O=C(/C=C/c1ccc(N2CCOCC2)cc1Cl)NO | 4.46 |
| O=C(/C=C/c1ccc(Br)cc1Cl)NO | 6.16 |
